According to PubChem BioAssay AID652162 (Broad Institute, 2013):
The entries are a selection whose mix differs from that of the whole data set. Active and inactive are the calls of the source. Cut-off read from the data, not from the text of the source: active = inhibition above about 10%; inactive = the rest.

These compounds were tested against Toxin B (Clostridioides difficile) (UniProt P18177) (assay: TcdB glycohydrolase inhibitors, primary screen, biochemical, single point, plate reader (AID 652162)). Conditions: TcdB glycohydrolase enzymatic assay, at 9.99 µM, stronger effect = higher value.
COc1ccc(Cl)cc1C(=O)NCC1(N2CCOCC2)CCCCC1 was tested, and the inhibition was inactive: 1.08%.
For O=C(NCC1(N2CCCCC2)CCCCC1)c1ccc(Cl)s1, the inhibition was inactive: -0.233%.
N#CC1(Nc2ccccc2)CCN(Cc2ccccc2)CC1 was tested, and the inhibition was inactive: -1.08%.
In the case of O=c1[nH]c2ccccc2n1C1CCN(C(c2cc3ccccc3o2)c2nnnn2C2CCCCC2)CC1 (stereo not drawn), the inhibition is reported as inactive: -0.144%.
For O=C(OC1CN2CCC1CC2)C1c2ccccc2Oc2ccccc21 (stereo not drawn), the inhibition was inactive: -0.255%.
In the case of CCCCn1nnnc1C(c1ccc(OC)cc1)N1CCC(n2c(=O)[nH]c3ccccc32)CC1 (stereo not drawn), the inhibition is reported as inactive: 1.42%.
For CCOC(=O)N1CCC(Nc2ccc(OC)cc2)CC1, the inhibition was inactive: 0.091%.
Cc1cc(C)cc(N(C(=O)c2ccccc2)C2CCN(C(=O)OC(C)(C)C)CC2)c1 was tested, and the inhibition was inactive: 0.572%.
O=C(NCC1(N2CCCCC2)CCCCC1)c1ccc(Cl)nc1 was tested, and the inhibition was inactive: -0.501%.
O=c1[nH]c2ccccc2n1C1CCN(C(c2ccccc2OC(F)(F)F)c2nnnn2C2CCCCC2)CC1 (stereo not drawn) was tested, and the inhibition was inactive: 0.15%.
For Cc1cccc(NC2(C#N)CCN(Cc3ccccc3)CC2)c1, the inhibition was inactive: -8.85%.
CSc1ccccc1C(=O)NCC1(N2CCCCC2)CCCCC1 was tested, and the inhibition was inactive: -0.584%.
CC(C)(C)OC(=O)N1CCC(N(C(=O)c2ccccc2)c2ccc(F)cc2)CC1 was tested, and the inhibition was inactive: 1.42%.
COc1ccc(C(=O)NCC2(N3CCCCC3)CCCCC2)c(OC)c1OC was tested, and the inhibition was inactive: -0.085%.
In the case of CCC(c1nnnn1C1CCCC1)N1CCC(n2c(=O)[nH]c3ccccc32)CC1 (stereo not drawn), the inhibition is reported as inactive: 0.645%.
For COc1ccc(C(=O)NCC2(N3CCCCC3)CCCCC2)cc1, the inhibition was inactive: 0.43%.
For O=C(NCC1(N2CCCCC2)CCCCC1)c1cccs1, the inhibition was inactive: 1.21%.
For CCCCn1nnnc1C(CC)N1CCC(n2c(=O)[nH]c3ccccc32)CC1 (stereo not drawn), the inhibition was inactive: 2.63%.
In the case of CCCCn1nnnc1C(c1cccs1)N1CCC(n2c(=O)[nH]c3ccccc32)CC1 (stereo not drawn), the inhibition is reported as inactive: 0.925%.
In the case of O=C(NCC1(N2CCCCC2)CCCCC1)c1ccc(=O)[nH]c1, the inhibition is reported as inactive: 1.17%.
For CCOC(=O)N1CCC(Nc2cccc(C)c2)CC1, the inhibition was inactive: 0.081%.
With COc1cc(C(=O)NCC2(N(C)C)CCCCC2)ccc1OC(F)F the inhibition was inactive: 1.41%.
O=c1[nH]c2ccccc2n1C1CCN(C(c2cccc3ccccc23)c2nnnn2C2CCCC2)CC1 (stereo not drawn) was tested, and the inhibition was inactive: -0.016%.
For O=c1[nH]c2ccccc2n1C1CCN(C(c2ccccc2)c2nnnn2C2CCCCC2)CC1 (stereo not drawn), the inhibition was inactive: -0.101%.
For CCOC(=O)N1CCC(Nc2ccc(F)cc2)CC1, the inhibition was inactive: -3.73%.
CCCCOc1ccc(C(=O)NCC2(N3CCOCC3)CCCCC2)cc1 was tested, and the inhibition was inactive: -0.126%.
CCCCn1nnnc1C(c1cc2ccccc2o1)N1CCC(n2c(=O)[nH]c3ccccc32)CC1 (stereo not drawn) was tested, and the inhibition was inactive: -0.71%.
With O=P1(N(CCCl)CCCl)SCCCS1 the inhibition was inactive: 1.22%.
O=C(NCC1(N2CCCCC2)CCCCC1)c1ccc(F)cc1 was tested, and the inhibition was inactive: 1.36%.
For O=C1CCN(Cc2ccccc2)CC1, the inhibition was inactive: 1.52%.
CC(C)(C)n1nnnc1C(c1ccccc1)N1CCC(n2c(=O)[nH]c3ccccc32)CC1 (stereo not drawn) was tested, and the inhibition was inactive: -1.3%.
In the case of CCOc1ccc(C)cc1CN(CCCl)CCCl, the inhibition is reported as inactive: 0.923%.
COc1cc(C(=O)NCC2(N3CCCCC3)CCCCC2)ccc1OC(F)F was tested, and the inhibition was inactive: -1.24%.
For CC(C)c1ccc(C(=O)NCC2(N3CCOCC3)CCCCC2)cc1, the inhibition was inactive: 5.43%.
With COc1ccc(NC2CCN(C(=O)OC(C)(C)C)CC2)cc1 the inhibition was inactive: -21.5%.
With CN1CCN(CCOC(=O)C(O)(c2ccccc2)c2ccccc2)CC1 the inhibition was inactive: 1.11%.
In the case of CCCCn1nnnc1C(c1cccc2ccccc12)N1CCC(n2c(=O)[nH]c3ccccc32)CC1 (stereo not drawn), the inhibition is reported as inactive: 0.297%.
With O=C(NCC1(N2CCCCC2)CCCCC1)c1cccc(C(F)(F)F)c1 the inhibition was inactive: 0.333%.
O=c1[nH]c2ccccc2n1C1CCN(C(c2ccccc2OC(F)(F)F)c2nnnn2C2CCCC2)CC1 (stereo not drawn) was tested, and the inhibition was inactive: 1.2%.
With CCN1CCC(Nc2ccc(Cl)cc2)CC1 the inhibition was inactive: 1.23%.
With O=C(NCC1(N2CCCCC2)CCCCC1)c1cccc([N+](=O)[O-])c1 the inhibition was inactive: 1.18%.
For CSc1ccc(C(=O)NCC2(N3CCOCC3)CCCCC2)cc1, the inhibition was inactive: 2.21%.
For O=C(NCC1(N2CCCCC2)CCCCC1)c1ccc(OC(F)F)cc1, the inhibition was inactive: 2.15%.
For CC(C)(C)n1nnnc1C(c1ccccc1OC(F)(F)F)N1CCC(n2c(=O)[nH]c3ccccc32)CC1 (stereo not drawn), the inhibition was inactive: 1.64%.
COc1ccc(C(c2nnnn2C2CCCC2)N2CCC(n3c(=O)[nH]c4ccccc43)CC2)cc1 (stereo not drawn) was tested, and the inhibition was inactive: 1.32%.
With CCCOc1ccc(C(=O)NCC2(N(C)C)CCCCC2)cc1OC the inhibition was inactive: 0.283%.
For Cc1ccc(C(=O)NCC2(N(C)C)CCCCC2)o1, the inhibition was inactive: -2.54%.
CN1CCC(Nc2cccc(F)c2)CC1 was tested, and the inhibition was inactive: 3.17%.
For O=C(NCC1(N2CCCCC2)CCCCC1)c1cncc(Br)c1, the inhibition was inactive: 0.852%.
CCC(c1nnnn1C(C)(C)C)N1CCC(n2c(=O)[nH]c3ccccc32)CC1 (stereo not drawn) was tested, and the inhibition was inactive: 0.928%.
With O=C(NCC1(N2CCOCC2)CCCCC1)c1cc(F)c(F)cc1Cl the inhibition was inactive: -1.47%.
COc1cc(OC)c(C(=O)NCC2(N(C)C)CCCCC2)cc1OC was tested, and the inhibition was inactive: 0.705%.
For CCCCn1nnnc1C(c1ccnc2ccccc12)N1CCC(n2c(=O)[nH]c3ccccc32)CC1 (stereo not drawn), the inhibition was inactive: -0.185%.
With CC(C)c1ccc(NC2CCN(C(=O)OC(C)(C)C)CC2)cc1 the inhibition was inactive: 1.2%.
With CN(C)c1cccc(C(=O)NCC2(N3CCCCC3)CCCCC2)c1 the inhibition was inactive: -0.097%.
For COc1ccc(CN(CCCl)CCCl)cc1Cl, the inhibition was inactive: 1.4%.
O=c1[nH]c2ccccc2n1C1CCN(C(c2cccs2)c2nnnn2C2CCCC2)CC1 (stereo not drawn) was tested, and the inhibition was inactive: 0.091%.
For CCCCn1nnnc1C(c1cccc(OC)c1OC)N1CCC(n2c(=O)[nH]c3ccccc32)CC1 (stereo not drawn), the inhibition was inactive: 1.51%.
With CCOC(=O)N1CCC(Nc2ccc(C)cc2)CC1 the inhibition was inactive: 0.824%.
In the case of COc1cccc(C(c2nnnn2C(C)(C)C)N2CCC(n3c(=O)[nH]c4ccccc43)CC2)c1OC (stereo not drawn), the inhibition is reported as inactive: 1.34%.
With O=c1[nH]c2ccccc2n1C1CCN(C(c2cccs2)c2nnnn2C2CCCCC2)CC1 (stereo not drawn) the inhibition was inactive: 1.62%.
In the case of O=c1[nH]c2ccccc2n1C1CCN(C(c2ccnc3ccccc23)c2nnnn2C2CCCC2)CC1 (stereo not drawn), the inhibition is reported as inactive: 0.241%.
With COc1ccc(C(=O)NCC2(N3CCOCC3)CCCCC2)cc1OC the inhibition was inactive: 3.38%.
In the case of COc1cc(C(=O)NCC2(N3CCOCC3)CCCCC2)cc(OC)c1C, the inhibition is reported as inactive: -0.077%.
In the case of CCCCn1nnnc1C(c1ccccc1)N1CCC(n2c(=O)[nH]c3ccccc32)CC1 (stereo not drawn), the inhibition is reported as inactive: 0.606%.
In the case of O=C(NCC1(N2CCOCC2)CCCCC1)c1cc(Br)ccc1Cl, the inhibition is reported as inactive: 0.661%.
CC(C)(C)n1nnnc1C(c1cccc2ccccc12)N1CCC(n2c(=O)[nH]c3ccccc32)CC1 (stereo not drawn) was tested, and the inhibition was inactive: 0.988%.
For CN(C)C1(CNC(=O)c2cccc(C#N)c2)CCCCC1, the inhibition was inactive: 0.492%.
With Cc1cc(N(CCCl)CCCl)ccc1C=O the inhibition was inactive: 1.63%.
With O=c1[nH]c2ccccc2n1C1CCN(C(c2ccccc2)c2nnnn2C2CCCC2)CC1 (stereo not drawn) the inhibition was inactive: 0.995%.
CCCN1CCC(Nc2cc(OC)cc(OC)c2)CC1 was tested, and the inhibition was inactive: -8.05%.
In the case of C/C(N)=N\P(=O)(Oc1ccccc1)Oc1ccccc1, the inhibition is reported as inactive: 1.4%.
With N#Cc1ccc(C(=O)NCC2(N3CCCCC3)CCCCC2)cc1 the inhibition was inactive: -0.159%.
With CC(C)(C)OC(=O)N1CCC(N(C(=O)c2ccccc2)c2ccc(Cl)cc2)CC1 the inhibition was inactive: 0.611%.
CN(C)c1ccc(C(=O)NCC2(N3CCCCC3)CCCCC2)cc1 was tested, and the inhibition was inactive: 0.942%.
Cn1c(=O)[nH]cc(N(CCCl)CCCl)c1=O was tested, and the inhibition was inactive: -2.82%.
In the case of O=C(NCC1(N2CCCCC2)CCCCC1)c1ccco1, the inhibition is reported as inactive: 1.13%.
In the case of COc1ccc(C(c2nnnn2C2CCCCC2)N2CCC(n3c(=O)[nH]c4ccccc43)CC2)cc1 (stereo not drawn), the inhibition is reported as inactive: 0.545%.
With CC(C)(C)n1nnnc1C(c1ccnc2ccccc12)N1CCC(n2c(=O)[nH]c3ccccc32)CC1 (stereo not drawn) the inhibition was inactive: 0.814%.
In the case of Cc1ccccc1NC1(C#N)CCN(Cc2ccccc2)CC1, the inhibition is reported as inactive: 1.04%.
For Fc1ccccc1NC1CCN(Cc2ccccc2)CC1, the inhibition was inactive: 0.672%.
For Cc1ccc(C(=O)NCC2(N3CCCCC3)CCCCC2)o1, the inhibition was inactive: 0.509%.
For Cc1ccc(NC2(C#N)CCN(Cc3ccccc3)CC2)cc1, the inhibition was inactive: -3.68%.
For CCC(c1nnnn1C1CCCCC1)N1CCC(n2c(=O)[nH]c3ccccc32)CC1 (stereo not drawn), the inhibition was inactive: -5.48%.
With COc1cccc(C(c2nnnn2C2CCCCC2)N2CCC(n3c(=O)[nH]c4ccccc43)CC2)c1OC (stereo not drawn) the inhibition was inactive: 0.586%.
With CC(=O)N(c1ccccc1)C1CCNCC1 the inhibition was inactive: 0.043%.
In the case of COc1cc(OC)cc(C(=O)NCC2(N3CCCCC3)CCCCC2)c1, the inhibition is reported as inactive: 0.386%.
With O=c1[nH]c2ccccc2n1C1CCN(C(c2ccnc3ccccc23)c2nnnn2C2CCCCC2)CC1 (stereo not drawn) the inhibition was inactive: -6.51%.
In the case of CN1CCC(Nc2ccc(Cl)cc2)CC1, the inhibition is reported as inactive: 0.216%.
For COc1cccc(C(=O)N(c2cc(C)cc(C)c2)C2CCN(C(=O)OC(C)(C)C)CC2)c1, the inhibition was inactive: 0.107%.
COc1cc(OC)cc(C(=O)NCC2(N3CCOCC3)CCCCC2)c1 was tested, and the inhibition was inactive: 0.917%.
COc1cccc(C(c2nnnn2C2CCCC2)N2CCC(n3c(=O)[nH]c4ccccc43)CC2)c1OC (stereo not drawn) was tested, and the inhibition was inactive: 0.644%.
With NN(c1ccccc1)C1CCN(CCc2ccccc2)CC1 the inhibition was inactive: 0.546%.
In the case of O=C(O)C1(Nc2ccccc2)CCN(Cc2ccccc2)CC1, the inhibition is reported as inactive: -1.64%.
For CC(C)(C)OC(=O)N1CCC(Nc2ccccc2)CC1, the inhibition was inactive: 2.66%.
In the case of O=c1[nH]c2ccccc2n1C1CCN(C(c2cc3ccccc3o2)c2nnnn2C2CCCC2)CC1 (stereo not drawn), the inhibition is reported as inactive: -0.117%.
CCCOc1ccc(C(=O)NCC2(N(C)C)CCCCC2)cc1 was tested, and the inhibition was inactive: 0.538%.
With CN1CCC(Nc2ccc(F)c(Cl)c2)CC1 the inhibition was inactive: 1.96%.
